The list shows a part of the results, in another mix than the full data. Calls of active or inactive are those of the source. Rule as the data show it: active = inhibition above about 14%; inactive = the rest.
What follows are compounds tested on HIV-1 integrase / human LEDGF/p75 complex (assay: inhibitors of HIV-1 IN-LEDGF/p75 DNA integration, confirmation, biochemical, TR-FRET (AID 1053136)). Settings: TR-FRET LEDGF/p75-dependent HIV-1 integration, at 3.7 µM, active compounds read high.

| SMILES | inhibition |
| --- | --- |
| CCOC(=O)c1ccc(NP(C)(=O)Oc2ccc(Cl)cc2)cc1 (stereo unspecified) | inactive: -0.49% |

Reference: PubChem BioAssay AID1053136 (The Scripps Research Institute Molecular Screening Center, 2014)
